Assay results: US5552384A (priority 1990, dated 1996)

Test: peptide synthesis

Substance	step yield (coupling step)	step yield (late stage modification step)
Boc-N-Me-Val-Tbg-Asp(pyrrolidino)-Asp(cyPn)(OBzl)-Leu-OBzl	86% yield	
Boc-Tbg-Asp(pyrrolidino)-Asp(cyPn)(OBzl)-Leu-OBzl	85%	
PhCH2 CH2 CO--N-Me-Val-Tbg-Asp(pyrrolidino)-Asp(cyPn)(OBzl)-Leu-OBzl	90%	
PhCH2 CH2 CO--N-Me-Val-Tbg-Asp(pyrrolidino)-Asp(cyPn)-Leu-OH		83%
